Laboratory results as given in the supplement of paper PMC3578754.
Fold change is the IC50 on the isolate divided by the IC50 on a reference virus; 1 = unchanged, higher = more resistant. Changes are given against the subtype B consensus. No active / inactive call. The values were gathered from many studies (numbered anew) with different assays, which the source does not name. Most viruses are clinical isolates; some are laboratory strains or clones with known resistance changes. Isolates with mixed residues are left out; stretches that were not sequenced show no change. Round top values that many isolates share are read here as limits; other very high values and 0.1 may be limits too. For some of these results: The protease changes I3V and N37S, insertions and deletions cannot be read from the source.

Legend:
tenofovir = compound: C[C@H](Cn1cnc2c(N)ncnc21)OCP(=O)(O)O [tenofovir]; assay: fold change of IC50 against reference virus; higher = more resistant
Method: (§1)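 Cell-culture drug susceptibility tests of virus bearing the reverse transcriptase of each isolate, gathered from many studies.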

delavirdine = compound: CC(C)Nc1cccnc1N1CCN(C(=O)c2cc3cc(NS(C)(=O)=O)ccc3[nH]2)CC1 [delavirdine]; assay: as above
Method: as §1

nevirapine = compound: Cc1ccnc2c1NC(=O)c1cccnc1N2C1CC1 [nevirapine]; assay: as above
Method: as §1

stavudine = compound: Cc1cn([C@H]2C=C[C@@H](CO)O2)c(=O)[nH]c1=O [stavudine]; assay: as above
Method: as §1

efavirenz = compound: O=C1Nc2ccc(Cl)cc2[C@@](C#CC2CC2)(C(F)(F)F)O1 [efavirenz]; assay: as above
Method: as §1

didanosine = compound: O=c1[nH]cnc2c1ncn2[C@H]1CC[C@@H](CO)O1 [didanosine]; assay: as above
Method: as §1

zidovudine = compound: Cc1cn([C@H]2C[C@H](N=[N+]=[N-])[C@@H](CO)O2)c(=O)[nH]c1=O [zidovudine]; assay: as above
Method: as §1

indinavir = compound: CC(C)(C)NC(=O)[C@@H]1CN(Cc2cccnc2)CCN1C[C@@H](O)C[C@@H](Cc1ccccc1)C(=O)N[C@H]1c2ccccc2C[C@H]1O [indinavir]; assay: fold change of IC50 against reference virus; higher = more resistant; Cell-culture drug susceptibility tests of virus bearing the protease of each isolate, gathered from many studies.
saquinavir = compound: CC(C)(C)NC(=O)[C@@H]1C[C@@H]2CCCC[C@@H]2CN1C[C@@H](O)[C@H](Cc1ccccc1)NC(=O)[C@H](CC(N)=O)NC(=O)c1ccc2ccccc2n1 [saquinavir]; assay: as above
ritonavir = compound: CC(C)c1nc(CN(C)C(=O)N[C@H](C(=O)N[C@@H](Cc2ccccc2)C[C@H](O)[C@H](Cc2ccccc2)NC(=O)OCc2cncs2)C(C)C)cs1 [ritonavir]; assay: as above
tipranavir = compound: CCC[C@@]1(CCc2ccccc2)CC(O)=C([C@H](CC)c2cccc(NS(=O)(=O)c3ccc(C(F)(F)F)cn3)c2)C(=O)O1 [tipranavir]; assay: as above
atazanavir = compound: COC(=O)N[C@H](C(=O)N[C@@H](Cc1ccccc1)[C@@H](O)CN(Cc1ccc(-c2ccccn2)cc1)NC(=O)[C@@H](NC(=O)OC)C(C)(C)C)C(C)(C)C [atazanavir]; assay: as above
nelfinavir = compound: Cc1c(O)cccc1C(=O)N[C@@H](CSc1ccccc1)[C@H](O)CN1C[C@H]2CCCC[C@H]2C[C@H]1C(=O)NC(C)(C)C [nelfinavir]; assay: as above
lopinavir = compound: Cc1cccc(C)c1OCC(=O)N[C@@H](Cc1ccccc1)[C@@H](O)C[C@H](Cc1ccccc1)NC(=O)[C@H](C(C)C)N1CCCNC1=O [lopinavir]; assay: as above

“HIV-1 isolate 149 (reverse transcriptase changes: Q151M, study 79)” was tested, and the “fold change of IC50 against reference virus” value (shortened to “fold change of IC50”) (tenofovir) was 1.

In the case of “HIV-1 isolate 1499 (reverse transcriptase changes: T39A M41L K64R L74V K102Q V118I K122E I135T I142V K166R Q174R M184V T200A L210W F214L T215Y V245N, study 95)”, the “fold change of IC50” value (delavirdine) is reported as 0.2, the “fold change of IC50” value (tenofovir) is reported as 1.1 and the “fold change of IC50” value (nevirapine) is reported as 0.9. For the same test system, the “fold change of IC50” value (stavudine) was 1.6, the “fold change of IC50” value (efavirenz) was 0.4 and the “fold change of IC50” value (didanosine) was 2.9.

“HIV-1 isolate 1398 (reverse transcriptase changes: T215Y, study 79)” was tested, and the “fold change of IC50” value (tenofovir) was 0.7.

“HIV-1 isolate 876 (reverse transcriptase changes: none, study 79)” was tested, and the “fold change of IC50” value (tenofovir) was 1.

“HIV-1 isolate 163 (reverse transcriptase changes: D67N K70R T215F K219Q, study 79)” was tested, and the “fold change of IC50” value (tenofovir) was 0.5.

With “HIV-1 isolate 1591 (reverse transcriptase changes: M41L E44D D67N A98G K101E V106I V108I V118I Y181C M184V G190A Q197E T200A E203D H208F L210W R211K T215Y K219N H221Y, study 95)” the “fold change of IC50” value (delavirdine) was 38, the “fold change of IC50” value (tenofovir) was 1.4 and the “fold change of IC50” value (nevirapine) was 178. The “fold change of IC50” value (stavudine) was 3.7, the “fold change of IC50” value (zidovudine) was 55 and the “fold change of IC50” value (efavirenz) was 253. The “fold change of IC50” value (didanosine) was 2.1.

With “HIV-1 isolate 76 (reverse transcriptase changes: V148M I178V Q207G R211K F214L, study 22)” the “fold change of IC50” value (tenofovir) was 28.

With “HIV-1 isolate 964 (reverse transcriptase changes: F77L F116Y Q151M, study 79)” the “fold change of IC50” value (tenofovir) was 2.5.

With “HIV-1 isolate 300 (reverse transcriptase changes: L74V, study 79)” the “fold change of IC50” value (tenofovir) was 1.

With “HIV-1 isolate 764 (reverse transcriptase changes: K122E Q151M F214L A272P K277R M357T A376T A400T N447S D460N S468T S519N, study 97)” the “fold change of IC50” value (tenofovir) was 3.7, the “fold change of IC50” value (nevirapine) was 1.6 and the “fold change of IC50” value (stavudine) was 26.6. For the same test system, the “fold change of IC50” value (zidovudine) was 87.5.

In the case of “HIV-1 isolate 1604 (reverse transcriptase changes: T39A M41L V106I I135T K173N Q174K V179E M184V Y188L T200A H208Y L210W R211K T215Y H221Y D237E V245Q, study 95)”, the “fold change of IC50” value (delavirdine) is reported as 58, the “fold change of IC50” value (tenofovir) is reported as 1.3 and the “fold change of IC50” value (nevirapine) is reported as 263. The “fold change of IC50” value (stavudine) was 2.2, the “fold change of IC50” value (zidovudine) was 9.7 and the “fold change of IC50” value (efavirenz) was 306. The “fold change of IC50” value (didanosine) was 1.7.

With “HIV-1 isolate 1638 (reverse transcriptase changes: K65R, study 79)” the “fold change of IC50” value (tenofovir) was 5.

With “HIV-1 isolate 1567 (reverse transcriptase changes: Y181C, study 79)” the “fold change of IC50” value (tenofovir) was 0.1.

In the case of “HIV-1 isolate 1117 (reverse transcriptase changes: M41L L74V V106A T215Y, study 79)”, the “fold change of IC50” value (tenofovir) is reported as 1.

For “HIV-1 isolate 847 (reverse transcriptase changes: T39A M41L E44D D67E S68G L74I V75M V108I V118I K122E I135T T165I M184V V189I G190A E203K Q207E L210W R211K T215Y K223Q V245K, study 95)”, the “fold change of IC50” value (delavirdine) was 0.2, the “fold change of IC50” value (tenofovir) was 1.5 and the “fold change of IC50” value (nevirapine) was 196. The “fold change of IC50” value (stavudine) was 3.1, the “fold change of IC50” value (zidovudine) was 50 and the “fold change of IC50” value (efavirenz) was 15. For the same test system, the “fold change of IC50” value (didanosine) was 2.3.

In the case of “HIV-1 isolate 655 (reverse transcriptase changes: M184V, study 79)”, the “fold change of IC50” value (tenofovir) is reported as 0.7.

“HIV-1 isolate 274 (reverse transcriptase changes: T69D, study 79)” was tested, and the “fold change of IC50” value (tenofovir) was 0.7.

“HIV-1 isolate 284 (protease changes: E35D L63P, study 64)” was tested, and the “fold change of IC50” value (indinavir) was 1, the “fold change of IC50” value (saquinavir) was 1 and the “fold change of IC50” value (ritonavir) was 1. The “fold change of IC50” value (tipranavir) was 0.7, the “fold change of IC50” value (atazanavir) was 1.2 and the “fold change of IC50” value (nelfinavir) was 1.2. The “fold change of IC50” value (lopinavir) was 0.8.

For “HIV-1 isolate 1543 (protease changes: L10F I13V V32I L33I M36I I54V L63P A71I I85V L90M, study 64)”, the “fold change of IC50” value (indinavir) was 37, the “fold change of IC50” value (saquinavir) was 35 and the “fold change of IC50” value (ritonavir) was 70. The “fold change of IC50” value (tipranavir) was 2, the “fold change of IC50” value (atazanavir) was 70 and the “fold change of IC50” value (nelfinavir) was 80. For the same test system, the “fold change of IC50” value (lopinavir) was 15.

“HIV-1 isolate 359 (protease changes: L10I T12E K20I E35D I62V L63P A71V G73S V77I L90M, study 64)” was tested, and the “fold change of IC50” value (indinavir) was 11, the “fold change of IC50” value (saquinavir) was 7.7 and the “fold change of IC50” value (ritonavir) was 6.6. For the same test system, the “fold change of IC50” value (tipranavir) was 0.5, the “fold change of IC50” value (atazanavir) was 6.7 and the “fold change of IC50” value (nelfinavir) was 18. The “fold change of IC50” value (lopinavir) was 2.3.
